Data: PubChem BioAssay AID488862 (Broad Institute, 2010)
The list shows a part of the results, in another mix than the full data. Activity calls are given as the source filed them. Rule as the data show it: active = inhibition above about 52%; inactive = the rest.

experiment: suppresses PrP 5' UTR mRNA reporter expression (AID 488862); conditions: cell-based PrP 5' UTR mRNA reporter, plate reader; active compounds read high; concentration not given here; also: 0 = median of the neutral control wells

Compound	inhibition
CCC(C)N(CC(C)C)C(=S)SC(NC(C)=O)C(Cl)(Cl)Cl (stereo not given)	inactive: -15.8%
CP(=O)(Nc1ccccn1)Oc1ccc(Cl)cc1 (stereo not given)	inactive: -3.5%
O=C(OC1CN2CCC1CC2)c1cccc([N+](=O)[O-])c1 (stereo not given)	inactive: -15.5%
CCOP(C)(=S)SCC(=O)NC(C)C(=O)O (stereo not given)	inactive: -36.5%
CCOC(=O)c1ccc(NC(=O)C(C)(CCl)SC)cc1 (stereo not given)	inactive: -43.2%
CCOC(=O)c1ccc(NP(C)(=O)Oc2ccc(OC)cc2)cc1 (stereo not given)	inactive: -38.4%
CCc1ccc(OP(C)(=O)N2CCN(c3ccc([N+](=O)[O-])cc3)CC2)cc1 (stereo not given)	inactive: -10.3%
CP(=O)(NC(=O)Nc1ccccc1)Oc1ccccc1 (stereo not given)	inactive: -13.1%
O=C(COc1ccccc1)OC1CN2CCC1CC2 (stereo not given)	inactive: -7.66%
O=C(Nc1ccncc1[N+](=O)[O-])c1ccc([N+](=O)[O-])cc1[N+](=O)[O-]	inactive: -11.2%
Cc1cc(C)cc(OP(C)(=O)Nc2ccc(SC(F)(F)F)cc2)c1 (stereo not given)	inactive: -19.3%
Cc1cccc(C)c1OP(C)(=O)Nc1ccc(SC(F)(F)F)cc1 (stereo not given)	inactive: 1.66%
COP1(=S)c2c(C)nn(CCC#N)c2N=C(c2ccc(F)cc2)N1C (stereo not given)	inactive: -12.9%
CP(=O)(Oc1ccccc1)OC(c1ccccc1)C(F)(F)F (stereo not given)	inactive: -26.4%
Cc1cc(SC(NC=O)C(Cl)(Cl)Cl)ncn1 (stereo not given)	inactive: -1.8%
COc1ccccc1OP(C)(=O)Nc1ccccc1 (stereo not given)	inactive: -12.9%
CP(=O)(Nc1ccccc1Br)Oc1ccccc1 (stereo not given)	inactive: -12.2%
O=[N+]([O-])c1ccc(Nc2ccc(Oc3ccc([N+](=O)[O-])cc3[N+](=O)[O-])cc2)c([N+](=O)[O-])c1	inactive: -9.86%
CP(=S)(Nn1cnnc1)Oc1ccccc1 (stereo not given)	inactive: -0.415%
CCOC(=O)Nc1cccc([As](=O)(O)O)c1	inactive: -2.73%
CCCCOc1ccc(C(=O)NCC2(N3CCCCC3)CCCCC2)cc1OC	inactive: -13.6%
Cc1cc(SC(NC(=O)c2ccccc2)C(Cl)(Cl)Cl)nc(C(C)C)n1 (stereo not given)	inactive: 4.87%

Compound	inhibition
CCOC(=O)Nc1ccc([As](=O)(O)O)c(O)c1	inactive: -23.5%
CC1CCNP(=O)(N(CCCl)CCCl)O1 (stereo not given)	inactive: -24.8%
O=C(OC1CN2CCC1CC2)c1cccc2[nH]cnc12 (stereo not given)	inactive: -2.39%
CCN(CC)C(=S)SC(NC=O)C(Cl)(Cl)Cl (stereo not given)	inactive: 12%
CC(C)NC(=O)NP(=O)(Oc1ccccc1)Oc1ccccc1	inactive: -22.1%
COc1ccccc1OP(C)(=O)Nc1cc(Cl)ccc1C (stereo not given)	inactive: -11.7%
O=[N+]([O-])c1cc([N+](=O)[O-])c(-c2ccn[nH]2)s1	inactive: -13.1%
COc1ccc(OP(C)(=O)Nc2cccc(F)c2)cc1 (stereo not given)	inactive: -14.9%
Cc1cc(C)cc(OP(C)(N)=O)c1 (stereo not given)	inactive: -11%
CCOC(=O)c1ccc(NP(C)(=O)Oc2ccccc2)cc1 (stereo not given)	inactive: -18.3%
ClCCSc1nnc(-c2cccnc2)o1	inactive: -24.4%
COc1ccccc1OP(C)(=O)Nc1ccc(C)cc1 (stereo not given)	inactive: -5.5%
CC(C)c1ccc(OP(=O)(Nc2ccccn2)Oc2ccccc2F)cc1 (stereo not given)	inactive: 1.74%
Cc1ccc(NP(C)(=O)Oc2ccccc2)c(C)c1 (stereo not given)	inactive: -13.6%
COC(=O)C1(C)COP(=O)(N2CCCCCC2)OC1 (stereo not given)	inactive: -10.1%
CC(C)(C)c1ccc(OP(C)(=O)Nc2ccc(SC(F)(F)F)cc2)cc1 (stereo not given)	inactive: 2.59%
Cc1ccc(OP(=O)(Nc2ccc([N+](=O)[O-])cn2)Oc2ccc(C)cc2)cc1	inactive: -5.23%
Cc1cccc(C)c1OP(C)(N)=O (stereo not given)	inactive: 12.5%
Cc1ccc2nc3c(c(C)c2c1)CC(C(Cl)Cl)S3 (stereo not given)	inactive: -23.2%
O=[N+]([O-])c1ccc2c(c1)C=Nc1ccccc1O2	inactive: -0.96%
O=[N+]([O-])c1cc([N+](=O)[O-])c(Nc2cccnc2)c([N+](=O)[O-])c1	inactive: 0.27%
C[As](=O)(O)c1cccc(C(=O)O)c1	inactive: -11.1%

Compound	inhibition
O=[As](O)(c1ccc(O)cc1)c1ccccc1O	inactive: -13.6%
COc1cc(C(=O)NCC2(N3CCOCC3)CCCCC2)ccc1OCC(C)C	inactive: 1.12%
O=[N+]([O-])c1ccc(-c2cc([N+](=O)[O-])c(O)c([N+](=O)[O-])c2)cc1	inactive: -13.1%
O=[N+]([O-])c1cc(Oc2ccc([N+](=O)[O-])cc2C(F)(F)F)cc([N+](=O)[O-])c1	inactive: -16.1%
COc1ccc(N/C(=N/P(=O)(N2CCOCC2)N2CCOCC2)N2CCOCC2)cc1	inactive: -16.4%
O=P1(N(CCCl)CCCl)OCCCN1CCCl (stereo not given)	inactive: -18.8%
O=P1(N(CCCl)CCCl)Nc2ccccc2N1	inactive: -19.7%
COc1ccc2nc(NP(=O)(c3ccccc3)c3ccccc3)sc2c1	inactive: -19.2%
COc1cc(I)ccc1[As](=O)(O)O	inactive: -13.1%
Cc1c2c(nc3ccccc13)SC(C(Cl)Cl)C2 (stereo not given)	inactive: -23.2%
O=C(OC1CN2CCC1CC2)C12CC3CC(CC(C3)C1)C2 (stereo not given)	inactive: -7.54%
CCN(CC)CCCOC(=O)C(O)(c1ccccc1)c1ccccc1	inactive: -23.5%
Cc1cc(=O)[nH]c(N[N+](=O)[O-])n1	inactive: 4.71%
CCOP(=O)(Nc1cccc2ccccc12)OCC	inactive: -26.8%
CP(=O)(Nc1cccc(Br)c1)Oc1ccccc1 (stereo not given)	inactive: -17.2%
Cc1cc(C)cc(OP(C)(=O)Nc2ccccn2)c1 (stereo not given)	inactive: -16.9%
Cc1ccc(NCCc2c([N+](=O)[O-])cc([N+](=O)[O-])cc2[N+](=O)[O-])cc1	inactive: -16.9%
CCCOP(=S)(Nc1nc(N)cc(=O)[nH]1)OCCC	inactive: -18.2%
Cc1ccc(C)c(NP(C)(=O)Oc2ccccc2)c1 (stereo not given)	inactive: -6.45%
O=[As](O)(c1cccc(O)c1)c1cccc(O)c1	inactive: -16.7%
Cc1cccc(OCC(=O)OC2CN3CCC2CC3)c1 (stereo not given)	inactive: -1.69%
